Compound potency records, mixed from different reports. Data source: NIAID ChemDB in PubChem.

Common to all: growth or infection tests; species: Mycobacterium avium

Lines come from different laboratories, so protocols vary.

| SMILES | strain or isolate | read-out | read by | setting | value |
|---|---|---|---|---|---|
| Cc1ccc2oc(=S)n(-c3ccc(Cl)c(Cl)c3)c(=S)c2c1 | MY330/88 | MIC | - | 14 d | 8 µM |
| O=c1oc2ccc(Cl)cc2c(=S)n1-c1ccccc1 | MY330/88 | MIC | - | - | 31 µM |
| N/C(=N\N=C\c1ccccc1)SCc1ccc(Br)cc1 | ATCC 25291 | MIC | broth dilution | 14 d | 16 µM |
| COc1ccccc1NC(=O)OCC[NH+]1CCCC1 | MY330/88 | MIC | - | - | >1000 µM |
| Clc1ccc(/C(Cn2ccnc2)=N\OCc2cccc3ccccc23)c(Cl)c1 | CIP103317 | MIC | - | - | >16 µg/mL |
| CC(C)C[C@H](NC(=O)OCc1ccccc1)c1cnc(-c2ccccc2)[nH]1 | MY330/88 | MIC | - | 21 d | >500 µM |
| CCS/C(N)=N/N=C/c1ccc2cc(Cl)ccc2n1 | CNCTC D5/93 | MIC | - | - | 63 µM |
| Cc1csc(NC(=O)c2ccc(Cl)cc2O)n1 | MY330/88 | MIC | - | - | 250 µM |
| CCCCCCOc1cccc(NC(=O)OCCN2CCOCC2)c1 | MY330/88 | MIC | - | - | 62.5 µM |
| C=CCN(CC=C)c1nc(C(N)=S)cnc1C(N)=O | 80/72 | MIC | - | - | >100 µg/mL |
| CCCSc1nnnn1-c1c(C)cc(C)cc1C | 80/72 | MIC | - | - | 1000 µM |
| COc1ccc2oc(=O)n(-c3ccc(Br)cc3)c(=S)c2c1 | MY330/88 | MIC | - | 14 d | 62.5 µM |
| O=c1oc2ccc(Cl)cc2c(=O)n1-c1ccc(Cl)cc1 | MY330/88 | MIC | - | - | 8 µM |
| Cc1cc(C)c(-n2nnnc2SC(C)C)c(C)c1 | 80/72 | MIC | - | - | 1000 µM |
| C(=C\c1ccccc1)/CO/N=C(\Cn1ccnc1)c1ccccc1 | CIP103317 | MIC | - | - | 8 µg/mL |
| O=C(N[C@@H](Cc1ccccc1)c1cnc(-c2ccccc2)[nH]1)OCc1ccccc1 | MY330/88 | MIC | - | 14 d | >250 µM |
| CC(C)C1Nc2cc(C(C)(C)C)cc(C(C)(C)C)c2O1 | MY330/88 | MIC | - | - | >1000 µM |
| COc1cccc(NC(=O)OCC[NH+]2CCCC2)c1 | MY330/88 | MIC | - | - | 1000 µM |
| Cc1ccc2oc(=S)n(-c3ccc(Br)cc3)c(=S)c2c1 | MY330/88 | MIC | - | 14 d | 4 µM |
| O=c1oc2ccc(Cl)cc2c(=S)n1-c1ccc(Cl)cc1 | MY330/88 | MIC | - | - | 16 µM |
| Cc1ccc2oc(=O)n(-c3ccc(C(F)(F)F)cc3)c(=S)c2c1 | MY330/88 | MIC | - | 14 d | 32 µM |
| CC(C)N=C(N)/N=C(\N)NOCCCOc1cc(Cl)c(Cl)cc1Cl | 101 | MIC | - | - | 19.5 µg/mL |
| CCCCCCS/C(N)=N/N=C/c1ccc2ccccc2n1 | CNCTC MY66/72 | MIC | - | - | 16 µM |
| c1ccc(CO/N=C(\Cn2ccnc2)c2ccccc2)cc1 | CIP103317 | MIC | - | - | 8 µg/mL |
| CC1(C)S[C@@H]2[C@H](NC(=O)[C@H](C(=O)[O-])c3ccsc3)C(=O)N2[C@H]1C(=O)[O-].[Na+].[Na+] | 2 strains | MIC | - | - | >128 µg/mL |
| COc1ccc(C(=O)Nn2cncn2)c(O)c1 | MY330/88 | MIC | - | - | 1000 µM |
| S=c1oc2ccc(Cl)cc2c(=S)n1-c1ccccc1 | MY330/88 | MIC | - | - | 16 µM |
| C=CCS/C(N)=N\N=C\c1ccc(F)cc1 | Clinical isolates | Geometric mean MIC | - | - | 10.45 µg/mL |
| N/C(=N\N=C\c1ccccc1)SCc1ccccc1 | ATCC 25291 | MIC | broth dilution | 21 d | 62.5 µM |
| C[C@H](NC(=O)OCc1ccccc1)c1cnc(-c2ccccc2)[nH]1 | MY330/88 | MIC | - | 21 d | 250 µM |
| CC(C)(C)c1cc(C(C)(C)C)c2oc(Cc3ccc(O)cc3)nc2c1 | MY330/88 | MIC | - | - | 250 µM |
| CCCCNc1nc(C(N)=S)cnc1C(N)=O | 80/72 | MIC | - | - | 100 µg/mL |
| CCOc1ccccc1NC(=O)OCCN(C)C | MY330/88 | MIC | - | - | 500 µM |
| Cc1c(F)c(N2CCNC(C)C2)cc2c1c(=O)c(C(=O)O)cn2C1CC1 | 25-3 | MIC | - | - | 0.25 µg/mL |
| N/C(=N\N=C\c1ccccc1O)SCc1cccc(Cl)c1 | ATCC 25291 | MIC | broth dilution | 21 d | 125 µM |
| O=c1oc2ccc(Cl)cc2c(=S)n1-c1cccc(F)c1 | MY330/88 | MIC | - | 21 d | 32 µM |
| CC(C)(C)c1cc(C(C)(C)C)c2oc(C(N)=O)nc2c1 | MY330/88 | MIC | - | - | 250 µM |
| Fc1ccc(-n2c(=S)oc3ccc(F)cc3c2=S)cc1 | MY330/88 | MIC | - | 14 d | 16 µM |
| CCCOc1ccccc1NC(=O)OCCN1CCCCC1 | MY330/88 | MIC | - | - | 500 µM |
| C[C@H](NC(=O)OCc1ccccc1)c1cnc(-c2ccc([N+](=O)[O-])cc2)[nH]1 | MY330/88 | MIC | - | 21 d | >125 µM |
| O[C@@H](c1cc(C(F)(F)F)nc2c(C(F)(F)F)cccc12)C1CCCCN1 | MAC 101 | MIC50 | broth dilution / radiometric | - | 32 µg/mL |
| CCCCCCOc1ccccc1NC(=O)OCCN1CCCCCC1 | MY330/88 | MIC | - | - | 16 µM |
| C[C@@H]1C(=O)C[C@H]2[C@H]1CC[C@@](C)(O)[C@H]1CC[C@](C)(O1)[C@@H]2O | - | MIC | - | - | 128 µg/mL |
| CC(C)c1c(O)cc([C@@H](N=C(N)N)C(=O)NCC(=O)O)cc1O | Strain #2 | MIC | - | - | 6.25 µg/mL |
| Cc1ccc(C(=O)Nn2cncn2)c(O)c1 | MY330/88 | MIC | - | - | 1000 µM |
| CC[C@H]1OC(=O)[C@H](C)[C@@H](O[C@H]2C[C@@](C)(OC)[C@@H](O)[C@H](C)O2)[C@H](C)[C@@H](O[C@@H]2O[C@H](C)C[C@H](N(C)C)[C@H]2O)[C@](C)(OC)C[C@@H](C)C(=O)[C@H](C)[C@@H](O)[C@]1(C)O | MAC 101 | MIC90 | broth dilution / radiometric | - | 4 µg/mL |
| CCS/C(N)=N/N=C/c1ccc2ccccc2n1.CCS/C(N)=N/N=C/c1ccc2ccccc2n1 | CNCTC D5/93 | MIC | - | - | 63 µM |
| CCCCCCCCCCOc1ccc(NC(=O)OCC[NH+]2CCCC2)cc1 | MY330/88 | MIC | - | - | 16 µM |
| NC[C@H]1O[C@H](O[C@H]2[C@H](O)[C@@H](O[C@H]3O[C@H](CO)[C@@H](O)[C@H](N)[C@H]3O)[C@H](N)C[C@@H]2N)[C@H](O)[C@@H](O)[C@@H]1O | 100 strains | MIC90 | - | - | 9.15 µg/mL |
| S=c1oc2ccc(Cl)cc2c(=S)n1-c1ccc(Cl)cc1 | MY330/88 | MIC | - | - | 16 µM |
| CCCCCOc1ccc(NC(=O)OCC[NH+]2CCCC2)cc1 | MY330/88 | MIC | - | - | 32 µM |
| CCCCSc1nnnn1-c1cccc(C)c1 | 80/72 | MIC | - | - | 250 µM |
| CCCCCCCOc1cccc(NC(=O)OCC[NH+]2CCCC2)c1 | MY330/88 | MIC | - | - | 16 µM |
| CC[C@H]1OC(=O)[C@H](C)C(=O)[C@H](C)[C@@H](O[C@@H]2O[C@H](C)C[C@H](N(C)C)[C@H]2O)[C@](C)(OC)C[C@@H](C)C(=O)[C@H](C)[C@H]2N(CCCCn3cnc(-c4cccnc4)c3)C(=O)O[C@]12C | Isolate 1110 | MIC | - | - | 20 µg/mL |
| Fc1ccc2oc(=S)n(-c3ccc(C(F)(F)F)cc3)c(=S)c2c1 | MY330/88 | MIC | - | 14 d | 32 µM |
| COc1ccc(C(=O)Nc2ncn[nH]2)c(O)c1 | MY330/88 | MIC | - | - | 1000 µM |
| Cc1cccc(-n2nnnc2SC(C)C)c1 | 80/72 | MIC | - | - | 500 µM |
| CCCCCOc1ccc(NC(=O)OCCN2CCCCCC2)cc1 | MY330/88 | MIC | - | - | 16 µM |
| CCCCS/C(N)=N/N=C/c1ccc2ccccc2n1 | CNCTC MY66/72 | MIC | - | - | 16 µM |
| NC(=O)c1ncc(C(N)=S)nc1N1CCOCC1 | 80/72 | MIC | - | - | >100 µg/mL |
| Clc1ccc(/C(Cn2ccnc2)=N\OCc2ccccc2)cc1 | CIP103317 | MIC | - | - | 0.5 µg/mL |
| NC[C@H]1O[C@H](O[C@H]2[C@H](O)[C@@H](O[C@H]3O[C@H](CO)[C@@H](O)[C@H](N)[C@H]3O)[C@H](N)C[C@@H]2N)[C@H](O)[C@@H](O)[C@@H]1O | Strain 1 | MIC | - | - | 6.25 µg/mL |
| O[C@@H](c1cc(C(F)(F)F)nc2c(C(F)(F)F)cccc12)[C@H]1CCCCN1 | MAC 101 | MIC90 | broth dilution / radiometric | - | 64 µg/mL |
| O=C(OCc1ccccc1)N1CCC[C@H]1c1cnc(-c2ccccc2)[nH]1 | MY330/88 | MIC | - | 21 d | >500 µM |
| Cc1ccc(C(=O)Nc2cncs2)c(O)c1 | MY330/88 | MIC | - | - | 125 µM |
| COc1ccc2oc(=O)n(-c3ccc(C)cc3)c(=S)c2c1 | MY330/88 | MIC | - | 14 d | 32 µM |
| N/C(=N\N=C\c1ccccc1)SCc1cccc(Cl)c1 | ATCC 25291 | MIC | broth dilution | 21 d | 62.5 µM |
| Cc1cccc(Nc2nc(C(N)=S)cnc2C(N)=O)c1 | 80/72 | MIC | - | - | >100 µg/mL |

A number after MIC or MFC names an inhibition level or a share of isolates. An empty or dashed field is not shown.